Reference: publication PMC3595261

Legend:
Assay in all cases: EMSA
[1] = test system: VicR (rVicR) + CovR (rCovR); details: co-binding, increased retardation, VicR buffer; 25 C, 60 min, 25 ul, ~0.6 fmol DNA. CovR (0-30 pmol): 20 mM Hepes pH 7.6, 1 mM EDTA, 10 mM (NH4)2SO4, 1 mM DTT, 0.2% Tween 20, 30 mM KCl, poly L-lysine 5 ng/ul; recombinant protein; label: DIG end label or unlabeled (gel stain); probe letters rebuilt from the primers and the genome
[2] = target: CovR (rCovR) (UniProt I6L8Z3); details: 25 C, 60 min, 25 ul, ~0.6 fmol DNA. CovR (0-30 pmol): 20 mM Hepes pH 7.6, 1 mM EDTA, 10 mM (NH4)2SO4, 1 mM DTT, 0.2% Tween 20, 30 mM KCl, poly L-lysine 5 ng/ul; recombinant protein; residues 1-230; protein details: His-tag (pET-22b, NcoI-XhoI); label: DIG end label or unlabeled (gel stain); probe letters rebuilt from the primers and the genome
[3] = test system: VicR (rVicR); details: 25 C, 60 min, 25 ul, ~0.6 fmol DNA. CovR (0-30 pmol): 20 mM Hepes pH 7.6, 1 mM EDTA, 10 mM (NH4)2SO4, 1 mM DTT, 0.2% Tween 20, 30 mM KCl, poly L-lysine 5 ng/ul; recombinant protein; residues 1-235; protein details: His-tag (pET-22b, NcoI-XhoI); label: DIG end label or unlabeled (gel stain); probe letters rebuilt from the primers and the genome

Sequence	binding result [1]	binding result [2]	binding result [3]
ACAGCTTGGCTATTGTTGGTATTTGTTTGCTTGGTTTTATTTTATTTTTATTAAAAAAATGAGAAAATACTTCGATTCTATTAGAAGTCAATTTTTTTCAGATAAATAAGGAATTACTTTTCTTAAAAGGAAAAGAAGGCATTTACTTTTTCTAATCACAACTTAATTGTAATATTTTTAATACTACTCTAAAAAGCAAGTAATATAACTACTGTATCATGTATATATAATTTGTTTAAAGGAGTAACCAATGTCTATTAAAAATATTTTAGAAAACAAAACAACAACAATTAAAGTTAGTTTTGCAGGAATTGCA (double strand) [lysM promoter]	binds	binds	binds
GCTTCCGAACATTGATCTTATTAATATTTTAACAATAAAAGGTTAGGACAAAAGTCCTGCCTTTTTCAAATATATTAGGCATAGTAGCTTGAAGTCAGACTGCTTAACTTTCTATTTTTGTCGATATGCTCTTAATTGTATTCATTTTTTACAGAAATGTAAAAAAAATGTGTCCATAATAAAATTAAATCATGATAAACTATATTATTATTTTAATGACATTAAAATAATAATAATTTATTTATGAGAGGAAAAAATGGAACAGAAGATTTTTAGCAAACGAAAAAGTAAGATTGCTGGGCTTTGTGGAGCTATTTTAACGAC (double strand) [wapE promoter]	–	binds	binds
TTGTACCAAAGACAAGCATAACTTTAATCTTTTTCATGTTCCCTCTTCATGATAAATTGAAATTAATGTAAAGCCAAATGATACATCTTTGTCATAATAGCATTATTTCATTACATTTTCAATACAAAATACTTTGATTTTTTTAAAAAACTTTTCCTTTATTTTATAATTATATTAAAAACACTCTTTTTTCACAAGAGCGTCCAAGGATAAAAATCATTACTAAATAAGTATTTGGCAAGCTTTAGAATTTTATCATTTTAGTTTAATGAGATAAAAAATTAATCAAGAGACTGTTTCGTATATGTCAA (double strand) [epsC promoter]	–	binds	–
